Experimental data: PubChem BioAssay AID1259414 (Drosophila RNAi Screening Center, 2018)
The deposit covers about 24,000 reagents; below is an unselected part of those that have a named target and a result. Over the whole deposit, about 1,210 (5%) are marked active. 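Inactive calls also include excluded dsRNAs with several or no targets, genes unexpressed in JW18, and well A1, regardless of score.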 Unmarked entries are inactive. The numbers tell different reagents against one gene apart.

Assay: 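Host factors increasing or decreasing Wolbachia levels in cultured fly cells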 (primary screen)
System: Drosophila JW18 cells infected with Wolbachia
Knock-down reagent: long dsRNA against Drosophila genes, 0.25 µg dsRNA per well of a 384-well plate
Time to read-out: 5 days
Challenge: cells persistently infected with Wolbachia before knock-down; no added drug
Measured: 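Imaged fluorescence in situ signal for Wolbachia 23S rRNA per DAPI-counted host cell, given as a robust z-score within each plate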
Direction: Wolbachia per cell robust z: higher = more Wolbachia per host cell than the plate typical
Rule for the call: 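Hit when robust z is 1.5 or more, or -1.5 or less, in at least two of three replicates; excludes dsRNAs with several or no targets, genes not expressed in JW18 and well A1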

Target gene | reagent | Wolbachia per cell robust z, rep 1 | Wolbachia per cell robust z, rep 2 | Wolbachia per cell robust z, rep 3
ppk26 (pickpocket 26) | 1 | -1.35 | -0.893 | -0.0647
ppk26 (pickpocket 26) | 2 | -0.38 | -0.0765 | 0.0863
Taf12L (TBP-associated factor 30kD subunit alpha-2) | 1 | 0.264 | 0.493 | 2.42
DZIP1 | 1 | 0.411 | 0.291 | 0.214
ro (rough) | 1 | 0.823 | -0.284 | -0.291
ro (rough) | 2 | 0.4 | 2.07 | 1.45
Pp1-Y2 (Protein phosphatase 1, Y-linked 2) | 1 | -1.04 | -0.0975 | 0.438
Nup205 (Nucleoporin 205kD) | 1 | 0.869 | -0.0554 | 0.577
CG17219 | 1 | -0.258 | 0.605 | -0.679
hrg (hiiragi) | 1 | -0.125 | 0.289 | -0.926
CG12290 | 1 | -1.07 | 0.867 | 0.522
CG12290 | 2 | 0.929 | 0.44 | 0.647
Df31 (Decondensation factor 31) | 1 | -0.104 | 0.765 | 0.039
Df31 (Decondensation factor 31) | 2 | -0.942 | 0.349 | -0.789
Bicra | 1 | -1.57 | -0.371 | 0.223
Bicra | 2 | -0.48 | -0.235 | -1.88
Pura (Puratrophin-1-like) | 1 | 0.474 | 3.05 | -1.2
Pura (Puratrophin-1-like) | 2 | 0.763 | -0.299 | -5.47
Pura (Puratrophin-1-like) | 3 | -0.162 | -0.62 | -0.0831
Pura (Puratrophin-1-like) | 4 | -0.236 | -0.0951 | 0.105
Pura (Puratrophin-1-like) | 5 | -0.397 | -0.161 | 0.215
Pura (Puratrophin-1-like) | 6 | -1.11 | -0.154 | 0.465
CG31999 | 1 | -3.56 | -5.96 | -4.18
CG31999 | 2 | 0.411 | 0.445 | -0.256
CG33796 | 1 | -1.01 | 0.248 | -1.33
Drsl2 (Drosomycin-like 2) | 1 | 0.757 | -1.94 | 1.79
Drsl2 (Drosomycin-like 2) | 2 | -0.354 | -0.883 | -1.25
CG17134 | 1 | 1.12 | 0.216 | -0.654
Samtor (S-adenosylmethionine sensor upstream of TORC1) | 1 | -4.19 | -1.15 | -0.261
Samtor (S-adenosylmethionine sensor upstream of TORC1) | 2 | 0.689 | -0.02 | 0.593
CG42590 | 1 | -2.66 | 0.749 | 0.607
CG8441 | 1 | -0.0626 | 0.255 | 0.29
tomboy40 | 1 | 0.663 | -1.35 | 0.493
tomboy40 | 2 | -1.12 | -0.985 | 0.327
chk (chaski) | 1 | 0.399 | 0.596 | 0.916
fmt (fiery mountain) | 1 | 0.356 | -0.431 | 1.06
Cyp317a1 (Cytochrome P450 317a1) | 1 | -0.833 | -0.101 | -0.367
CG10472 | 1 | -0.704 | -0.695 | 0.716
CG10472 | 2 | -0.911 | -1.72 | -0.983
CG15249 | 1 | 0.719 | 0.733 | -2.45
Opa1 (Optic atrophy 1) | 1 | -2.13 (active) | -0.406 | -1.61
Opa1 (Optic atrophy 1) | 2 | 0.135 | -0.754 | 1.1
bun (bunched) | 1 | -0.9 | -1.36 | -1.01
bun (bunched) | 2 | -0.871 | 0.263 | -0.971
bun (bunched) | 3 | -2.18 | -0.499 | 0.263
RpL7-like (Ribosomal protein L7-like) | 1 | 0.142 | 0.876 | 0.779
RpL7-like (Ribosomal protein L7-like) | 2 | 0.718 | -0.392 | -0.344
RpL7-like (Ribosomal protein L7-like) | 3 | 0.918 | 0.179 | 0.181
Dh44 (Diuretic hormone 44) | 1 | 0.104 | 0.74 | 1.4
Dh44 (Diuretic hormone 44) | 2 | -0.613 | 0.735 | -6.22
LysRS (Lysyl-tRNA synthetase) | 1 | 0.237 | 0.751 | 1.01
LysRS (Lysyl-tRNA synthetase) | 2 | -0.0445 | -1.23 | 0.0756
CG11249 | 1 | -0.177 | -0.345 | -0.138
CG10474 | 1 | 1.35 | 1.55 | -1.8
grau (grauzone) | 1 | 0.415 | 1.04 | 0.0358
grau (grauzone) | 2 | -6.42 (active) | -3.07 | -0.789
CG3119 | 1 | -1.25 | 1.56 | -1.9
Spn42Dd (Serpin 42Dd) | 1 | -1.93 (active) | -1.82 | -10.3
Spn42Dd (Serpin 42Dd) | 2 | 0.467 | 0.166 | -0.427
AANATL4 (Arylalkylamine N-acetyltransferase-like 4) | 1 | 0.385 | -1.68 | 0.93
Tsc1 | 1 | 0.798 | 0.628 | 2.51
Tsc1 | 2 | 0.456 | -1.06 | -1.26
tai (taiman) | 1 | 0.858 | -2.2 | 0.399
tai (taiman) | 2 | -0.902 | 0.547 | 0.0334
Hel89B (Helicase 89B) | 1 | 0.104 | 0.879 | 0.952
Hel89B (Helicase 89B) | 2 | 0.103 | -1.11 | 0.0789
Trm7-34 (tRNA methyltransferase 7-34) | 1 | -0.548 | -5.94 | -1.38
CG42553 | 1 | -2.33 (active) | -0.8 | -2.37

Called active, among the entries above:
Target gene | reagent | Wolbachia per cell robust z, rep 1 | Wolbachia per cell robust z, rep 2 | Wolbachia per cell robust z, rep 3
Opa1 (Optic atrophy 1) | 1 | -2.13 (active) | -0.406 | -1.61
grau (grauzone) | 2 | -6.42 (active) | -3.07 | -0.789
Spn42Dd (Serpin 42Dd) | 1 | -1.93 (active) | -1.82 | -10.3
CG42553 | 1 | -2.33 (active) | -0.8 | -2.37
